Results as given in PMC8879444, “Neofunctionalization of Glycolytic Enzymes: An Evolutionary Route to Plant Parasitism in the Oomycete Phytophthora nicotianae” (Microorganisms, 2022).

Test system: Nc1ncnc2c1ncn2[C@@H]1O[C@H](COP(=O)(O)OP(=O)(O)OP(=O)(O)O)[C@@H](O)[C@H]1O
Test: purified protein

Substance | Km (pH 7.5, phosphate buffer, co-substrate glucose, pH 7.5) [µM] | Km (pH 8.5, phosphate buffer, co-substrate fructose, pH 8.5) [µM]
GKII (PPTG_18927) (Phytophthora nicotianae P1569) | 500 ± 50 | –
FKI (PPTG_18886) (Phytophthora nicotianae P1569) | – | 1000 ± 50
